Experimental data taken from patent US7491489B2 (priority 2004, dated 2009).

tested on: SARS-CoV GZ50 strain; experiment: Peptide-mediated protection from cytopathic effects (CPE) of SARS-CoV infection in FRhK-4 cells

Question: `CC[C@H](C)[C@H](NC(=O)CNC(=O)[C@H](CC(C)C)NC(=O)[C@@H]1CCCN1C(=O)[C@H](CC(C)C)NC(=O)[C@H](CCCCN)NC(=O)[C@@H](N)Cc1ccccc1)C(=O)N[C@@H](CC(N)=O)C(=O)N[C@H](C(=O)N[C@H](C(=O)N[C@@H](CC(N)=O)C(=O)N[C@@H](Cc1ccccc1)C(=O)N[C@@H](CCCNC(=N)N)C(=O)N[C@@H](C)C(=O)N[C@H](C(=O)N[C@@H](CC(C)C)C(=O)N[C@H](C(=O)N[C@@H](C)C(=O)N[C@@H](Cc1ccccc1)C(=O)N[C@@H](CO)C(=O)O)[C@@H](C)O)[C@@H](C)CC)[C@@H](C)O)[C@@H](C)CC` [P1] was tested. Which “Antiviral activity (overall statement)” value did it give?
Answer: no antiviral activities

Question: With `CC[C@H](C)[C@H](NC(=O)[C@H](CCC(=O)O)NC(=O)[C@H](CO)NC(=O)[C@@H](NC(=O)[C@H](CCCCN)NC(=O)[C@@H]1CCCN1C(=O)[C@H](CC(=O)O)NC(=O)[C@H](CCCNC(=N)N)NC(=O)[C@@H](NC(=O)[C@H](CO)NC(=O)[C@H](CC(=O)O)NC(=O)[C@@H](NC(=O)[C@H](Cc1ccccc1)NC(=O)[C@H](CC(=O)O)NC(=O)[C@H](CO)NC(=O)[C@@H](NC(=O)[C@H](CC(=O)O)NC(=O)[C@@H](N)CCCNC(=N)N)C(C)C)[C@@H](C)O)C(C)C)[C@@H](C)O)C(=O)N[C@@H](CC(C)C)C(=O)N[C@@H](CC(=O)O)C(=O)O` [P5] as the compound, how does the “Antiviral activity (overall statement)” value read?
Answer: no antiviral activities

Question: Which “Antiviral activity (overall statement)” value does the source give for `CC[C@H](C)[C@H](NC(=O)[C@H](C)NC(=O)[C@@H](NC(=O)[C@H](CO)NC(=O)[C@@H](NC(=O)[C@H](CC(=O)O)NC(=O)[C@@H](NC(=O)[C@H](CS)NC(=O)[C@H](CC(N)=O)NC(=O)[C@@H](NC(=O)[C@H](CC(=O)O)NC(=O)[C@H](CCC(N)=O)NC(=O)[C@@H](N)Cc1ccc(O)cc1)C(C)C)[C@@H](C)O)C(C)C)[C@@H](C)O)C(=O)N[C@@H](Cc1c[nH]cn1)C(=O)N[C@@H](C)C(=O)N[C@@H](CC(=O)O)C(=O)N[C@@H](CCC(N)=O)C(=O)N[C@@H](CC(C)C)C(=O)N[C@H](C(=O)N1CCC[C@H]1C(=O)O)[C@@H](C)O` [P6] here?
Answer: Significant antiviral effects

Question: `CC[C@H](C)[C@H](NC(=O)[C@H](CO)NC(=O)[C@H](Cc1ccccc1)NC(=O)[C@H](CC(N)=O)NC(=O)[C@@H](NC(=O)[C@@H]1CCCN1C(=O)[C@@H](NC(=O)[C@H](C)NC(=O)[C@@H](NC(=O)[C@@H](NC(=O)[C@H](CC(N)=O)NC(=O)[C@H](CC(N)=O)NC(=O)[C@@H](N)CO)[C@@H](C)O)[C@@H](C)CC)[C@@H](C)CC)[C@@H](C)O)C(=O)N[C@@H](CO)C(=O)N[C@H](C(=O)N[C@H](C(=O)N[C@H](C(=O)N[C@@H](CCC(=O)O)C(=O)N[C@H](C(=O)N[C@@H](CCSC)C(=O)O)C(C)C)[C@@H](C)O)[C@@H](C)O)[C@@H](C)CC` [P7] was tested. Which “Antiviral activity (overall statement)” value did it give?
Answer: no antiviral activities

Question: Which “Antiviral activity (overall statement)” value does the source give for `CC[C@H](C)[C@H](NC(=O)CN)C(=O)NCC(=O)N[C@H](C(=O)N[C@H](C(=O)N[C@@H](CCC(N)=O)C(=O)N[C@@H](CC(N)=O)C(=O)N[C@H](C(=O)N[C@@H](CC(C)C)C(=O)N[C@@H](Cc1ccc(O)cc1)C(=O)N[C@@H](CCC(=O)O)C(=O)N[C@@H](CC(N)=O)C(=O)N[C@@H](CCC(N)=O)C(=O)N[C@@H](CCCCN)C(=O)N[C@@H](CCC(N)=O)C(=O)N[C@H](C(=O)N[C@@H](C)C(=O)N[C@@H](CC(N)=O)C(=O)N[C@@H](CCC(N)=O)C(=O)N[C@@H](Cc1ccccc1)C(=O)O)[C@@H](C)CC)C(C)C)[C@@H](C)O)C(C)C` [P9] here?
Answer: no antiviral activities
